Assay: Bottom-up proteomic identification (nanoLC-MS/MS) of proteins in intestinal segments
Set-up: species or system chicken

Question: Which “Number of Unique Peptides, caecal tonsil” value (bottom-up nanoLC-MS/MS of protein extract from chicken caecal tonsil, endogenous protein identified) does the source give for “gallinacin-7 [Gallus gallus] (RPIDTCRLRNGICFPGICRRPYYWIGTCNNGIGSCCARGWRS; UniProt Q6QLR2 26-67, looked up)” here?
Answer: Its value is 3.

Question: What about the “Number of Unique Peptides, caecum” value (bottom-up nanoLC-MS/MS of protein extract from chicken caecum, endogenous protein identified) of the same molecule?
Answer: The value was 3.

Question: What about the “Number of Unique Peptides, ileon” value (bottom-up nanoLC-MS/MS of protein extract from chicken ileon, endogenous protein identified) of the same molecule?
Answer: The value was 2.

Question: And the “Number of Unique Peptides, jejunum” value (bottom-up nanoLC-MS/MS of protein extract from chicken jejunum, endogenous protein identified)?
Answer: Its value is 2.

B1: RecName: Full=Spliceosome RNA helicase DDX39B; AltName: Full=56 kDa U2AF65-associated protein; AltName: Full=DEAD box protein UAP56 (protein, UniProt Q5ZHZ0 1-428, looked up)
Spliceosome RNA helicase …: MAENDVDNELLDYEEDEVENAAGGDGSEAPPKKDVKGSYVSIHSSGFRDFLLKPELLRAIVDCGFEHPSEVQHECIPQAILGMDVLCQAKSGMGKTAVFVLATLQQLEPVTGQVSVLVMCHTRELAFQISKEYERFSKYMPSVKVAVFFGGLAVKKDEEVLKKNCPHIVVGTPGRILALARNKSLNLKHIKHFILDECDKMLEQLDMRRDVQEIFRMTPHEKQVMMFSATLSKEIRPVCRKFMQDPMEIFVDDETKLTLHGLQQYYVKLKDNEKNRKLFDLLDVLEFNQVVIFVKSVQRCIALAQLLVEQNFPAIAIHRGMPQEERLSRYQQFKDFQRRILVATNLFGRGMDIERVNIAFNYDMPEDSDTYLHRVARAGRFGTKGLAITFVSDENDAKILNDVQDRFEVNISELPDEIDISSYIEQTR
Question: With B1 as the molecule, how does the “Number of Unique Peptides, caecal tonsil” value (chicken caecal tonsil protein extract, bottom-up nanoLC-MS/MS) read?
Answer: Its value is 0.

Question: What about the “Number of Unique Peptides, caecum” value (chicken caecum protein extract, bottom-up nanoLC-MS/MS) of the same molecule?
Answer: The value was 1.

Question: What about the “Number of Unique Peptides, ileon” value (chicken ileon protein extract, bottom-up nanoLC-MS/MS) of the same molecule?
Answer: The value was 0.

Question: And the “Number of Unique Peptides, jejunum” value (chicken jejunum protein extract, bottom-up nanoLC-MS/MS)?
Answer: Its value is 0.

B2: gallinacin 1 precursor (protein, UniProt P46156 1-65, looked up)
chain: MRIVYLLLPFILLLAQGAAGSSQALGRKSDCFRKSGFCAFLKCPSLTLISGKCSRFYLCCKRIWG
modifications: full-length
Question: For B2, which “Number of Unique Peptides, caecal tonsil” value (chicken caecal tonsil protein extract, bottom-up nanoLC-MS/MS identification) is on record?
Answer: Its value is 1.

Question: And the “Number of Unique Peptides, caecum” value (chicken caecum protein extract, bottom-up nanoLC-MS/MS identification)?
Answer: Its value is 0.

Question: And the “Number of Unique Peptides, ileon” value (chicken ileon protein extract, bottom-up nanoLC-MS/MS identification)?
Answer: Its value is 0.

Question: And the “Number of Unique Peptides, jejunum” value (chicken jejunum protein extract, bottom-up nanoLC-MS/MS identification)?
Answer: Its value is 1.
